## PSTVd stem 3 mutant pool in Nicotiana benthamiana

Reference: Wu et al. 2024, doi:10.1371/journal.ppat.1012142.

Region: stem 3 of PSTVd (intermediate strain), upper and lower strand joined, each 5' to 3', the first 8 letters being the upper strand. Wild type: GUGGUUCCGGAACCGC. Varied positions (N): GUGGUUCCGNANNCNN.

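A pool of all variants was put on leaves of three Nicotiana benthamiana plants. Progeny were sequenced from the inoculated region (day 5), the margin of the inoculated leaf (day 10) and systemic leaves (day 12).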

Numbers give reads per thousand; 0 = not seen among the reads, higher = more abundant. Each value is the mean of three plants. "Pool" is the share in the plasmid pool used as inoculum, on the same scale. The inoculated region was read from the minus strand, the other sites from the plus strand. Wild type was 17.3 per thousand in the pool and the most common sequence in every sample (inoculated region 330, 345, 235; leaf margin 794, 766, 816; systemic leaves 830, 792, 869). Sequences that differ at fixed positions probably stem from PCR or sequencing errors, and defective variants can be carried along by functional ones. With 27,691-54,225 reads a sample, very low values are single reads.

sequence,pool,inoculated region,leaf margin,systemic leaves
GUGGUUCCGGACUCCC,0.646,0.269,0.0106,0
GUGGUUCCGGAAGCUG,0.600,0.319,0,0
GUGGUUCCGUAUUCGC,1.06,0.267,0.0106,0.00811
GUGGUUCCGCAUUCUC,1.06,0.347,0,0
GUGGUUCCGUACGCCU,0.800,0.285,0.0347,0
GUGGUUCCGAAAUCCU,0.739,0.736,0.414,0
GUGGUUCCGAAUCCGA,1.05,0.363,0.0241,0
GUGGUUCCGUAUUCUU,1.80,1.61,0.0200,0.00621
GUGGUUCCGAAAGCAG,0.831,0.888,0,0
GUGGGUCCGAAUCCGC,0.0154,0,0,0
GUGGUUCCGUAAACCU,0.846,0.340,0,0
GUGGUUCCGCAAUCGA,1.34,0.948,0.210,0.0496
GUGGUUCCGGAACCGA,1.09,1.19,0.721,0.876
GUGGUUCCGCACUCCC,1.06,0.455,0.00944,0.0888
GUGAUUCCGUACACGG,0.0154,0,0,0
GUGGUUCCGUAAGCGC,1.40,0.579,0.0389,0.0391
GUGGUUCCGAAUCCAA,0.785,0.762,0.108,0
GUGGUUCCGAACUCGA,0.954,0.905,0,0
GUGGUUCCGUAAGCGA,1.99,1.10,0.489,0.0515
GUGGUUCCGGAACCUU,0.708,0.317,0,0
GUGGUUCCGUACACCU,0.754,0.288,0.0200,0
GUGGUUCCGGAUGCCG,0.769,0.292,0.00944,0
GUGGUUCCGAAAACGA,0.785,0.364,0.0332,0
GUGGUUCCGCAGUCAA,0.893,0.785,0.451,0
GUGGUUCCGGAACCAC,1.42,15.5,8.62,7.37
GUGGUUCCGUAUGCCU,1.03,0.337,0.0215,0
GUGGUUCCGGAGCCAC,0.877,1.18,0.285,0
GUGGUUCCGCACCCCG,0.877,0.296,0.0215,0
GUGGUUCCGCAUGCCU,0.846,0.306,0.00944,0
GUGGUUCCGUACUCCU,0.816,0.805,0.0817,0.0434
GUGGUUCCGUAGGCGU,0.800,0.740,0.130,0
GUGGUUCCGGAGCCAU,0.846,0.891,0.497,0
GUGGUUCCGUAUGCAU,0.923,0.732,0,0.0578
GUGGUUCCGCAACCUA,0.939,0.305,0.0241,0
GUGGUUCCGAAUACAA,0.939,0.747,0.0226,0
GUGGUUCCGCAGUCCC,0.985,1.02,0.570,0
GUGGUUCCGUAGUCUA,1.25,1.07,0.0226,0
GUGGUUCCGGACUCAG,2.23,1.25,0.278,0.0369
GUGGUUCCGGAAUCAA,1.65,1.63,0,0.112
GUGGUUCCGAAGUCCU,0.769,1.34,1.94,2.19
GUGGUUCCGAAACCAC,0.877,0.816,0.00944,0
GUGGUUCCGGAUACUG,0.877,0.276,0,0
GUGGUUCCGAAUACUG,0.954,0.536,0.00944,0
UUGGUUCCGAAGGCGC,0.0154,0,0,0
GUGGUUCCGCAUGCAC,0.831,0.312,0,0
GUGGUUCCGUAACCAG,0.970,0.251,0.0335,0
GUGGUUCCGUACGCUA,0.708,0.406,0.0215,0
GUGGUUCCGGAGACUU,0.862,0.728,0,0
GUGGUUCCGGACUCAU,0.893,0.819,0.489,0
GUGGGUCCGCAAGCCC,0.0154,0,0,0
GUGGUUCCGAAACCAU,0.800,0.789,0.475,0
GUGGUUCCGAAGUCUG,0.785,0.894,0.534,0
GUGGUUCCGGAGACGU,0.785,1.28,0.369,0
GUGGUUCCGAAGGCAA,0.693,1.09,0.490,0
GUGGUUCCGCACCCAG,0.677,0.342,0,0
GUGGUUCCGUACUCCG,0.723,0.315,0,0
GUGGUUCCGGAUCCAA,2.43,1.19,0.144,0.0349
GUGGUUCCGAACACGC,0.677,0.376,0.0120,0
GUGGUUCCGCAGUCGC,0.908,0.686,0.0120,0
GUGGUUCCGUAGGCUC,0.831,0.281,0,0
GUGGUUCCGUAUUCGA,1.48,0.620,0.125,0.0621
GUGGUUCCGUACCCAA,0.816,0.337,0.0120,0

A selection of 4 entries from above:

| sequence | pool | inoculated region | leaf margin | systemic leaves |
|---|---|---|---|---|
| GUGGUUCCGUACCCAA | 0.816 | 0.337 | 0.0120 | 0 |
| GUGGGUCCGAAUCCGC | 0.0154 | 0 | 0 | 0 |
| GUGGUUCCGAAAUCCU | 0.739 | 0.736 | 0.414 | 0 |
| GUGGUUCCGCACCCAG | 0.677 | 0.342 | 0 | 0 |